Test results as given in patent EP1336409B1 (priority 1995, dated 1997).

Chains of the proteins cited; added tags and fusions are not shown.
UniProt Q02294, whole entry, looked up: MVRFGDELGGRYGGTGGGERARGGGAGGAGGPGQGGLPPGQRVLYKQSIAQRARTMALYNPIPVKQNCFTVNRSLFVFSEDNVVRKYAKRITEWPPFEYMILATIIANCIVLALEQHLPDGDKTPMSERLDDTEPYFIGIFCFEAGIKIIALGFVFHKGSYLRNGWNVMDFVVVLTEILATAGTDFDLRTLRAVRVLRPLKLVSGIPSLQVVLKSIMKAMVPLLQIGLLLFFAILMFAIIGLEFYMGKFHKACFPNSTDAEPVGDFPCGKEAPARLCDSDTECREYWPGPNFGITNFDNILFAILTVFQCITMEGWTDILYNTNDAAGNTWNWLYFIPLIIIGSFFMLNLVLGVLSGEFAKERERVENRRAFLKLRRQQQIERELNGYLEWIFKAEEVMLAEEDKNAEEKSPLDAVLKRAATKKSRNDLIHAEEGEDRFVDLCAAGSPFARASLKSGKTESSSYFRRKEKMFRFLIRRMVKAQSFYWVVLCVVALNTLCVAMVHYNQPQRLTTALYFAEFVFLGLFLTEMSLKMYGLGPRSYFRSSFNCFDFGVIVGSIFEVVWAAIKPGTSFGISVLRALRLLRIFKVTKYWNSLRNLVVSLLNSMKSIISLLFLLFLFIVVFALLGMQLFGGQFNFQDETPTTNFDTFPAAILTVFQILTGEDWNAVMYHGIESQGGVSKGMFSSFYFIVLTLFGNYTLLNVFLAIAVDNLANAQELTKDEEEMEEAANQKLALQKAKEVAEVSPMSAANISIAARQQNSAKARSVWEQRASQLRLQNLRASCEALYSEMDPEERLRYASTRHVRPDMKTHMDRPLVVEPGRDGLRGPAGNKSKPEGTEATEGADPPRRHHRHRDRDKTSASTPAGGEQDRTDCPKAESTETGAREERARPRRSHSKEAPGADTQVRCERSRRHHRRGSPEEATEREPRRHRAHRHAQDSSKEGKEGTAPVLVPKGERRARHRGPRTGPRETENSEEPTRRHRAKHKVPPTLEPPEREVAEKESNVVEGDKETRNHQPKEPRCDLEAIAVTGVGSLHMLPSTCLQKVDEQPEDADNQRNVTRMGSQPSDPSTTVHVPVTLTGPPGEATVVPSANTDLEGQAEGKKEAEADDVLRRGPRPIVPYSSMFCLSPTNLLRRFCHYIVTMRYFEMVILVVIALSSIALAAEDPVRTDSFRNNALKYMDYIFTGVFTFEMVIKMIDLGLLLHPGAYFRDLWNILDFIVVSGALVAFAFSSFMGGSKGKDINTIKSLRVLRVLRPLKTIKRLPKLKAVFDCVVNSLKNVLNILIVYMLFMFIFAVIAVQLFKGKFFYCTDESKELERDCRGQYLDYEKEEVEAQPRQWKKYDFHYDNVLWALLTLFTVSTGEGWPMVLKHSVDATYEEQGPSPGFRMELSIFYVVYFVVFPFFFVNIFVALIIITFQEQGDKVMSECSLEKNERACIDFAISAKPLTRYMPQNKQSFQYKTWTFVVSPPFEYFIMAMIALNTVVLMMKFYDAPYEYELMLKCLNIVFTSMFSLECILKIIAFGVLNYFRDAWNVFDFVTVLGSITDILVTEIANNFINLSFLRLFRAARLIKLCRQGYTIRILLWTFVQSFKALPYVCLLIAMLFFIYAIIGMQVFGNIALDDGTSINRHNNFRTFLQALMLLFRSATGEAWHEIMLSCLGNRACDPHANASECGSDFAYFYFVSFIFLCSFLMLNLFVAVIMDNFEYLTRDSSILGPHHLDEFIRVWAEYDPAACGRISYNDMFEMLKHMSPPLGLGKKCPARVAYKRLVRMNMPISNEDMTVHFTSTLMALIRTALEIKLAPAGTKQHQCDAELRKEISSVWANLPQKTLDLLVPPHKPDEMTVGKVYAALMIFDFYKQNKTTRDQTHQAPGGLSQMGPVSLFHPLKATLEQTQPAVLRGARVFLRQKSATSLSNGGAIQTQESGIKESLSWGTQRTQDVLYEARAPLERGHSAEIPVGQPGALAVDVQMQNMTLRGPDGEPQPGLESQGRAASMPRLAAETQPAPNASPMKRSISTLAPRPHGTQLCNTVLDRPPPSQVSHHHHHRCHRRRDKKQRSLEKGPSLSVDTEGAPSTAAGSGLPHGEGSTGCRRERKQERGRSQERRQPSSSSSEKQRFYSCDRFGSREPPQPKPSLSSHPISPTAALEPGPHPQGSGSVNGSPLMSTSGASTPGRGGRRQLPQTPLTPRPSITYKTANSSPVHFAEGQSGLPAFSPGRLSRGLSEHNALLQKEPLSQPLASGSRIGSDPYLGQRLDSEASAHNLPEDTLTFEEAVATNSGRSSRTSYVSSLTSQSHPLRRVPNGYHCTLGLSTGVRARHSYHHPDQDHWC

Biological target: MVIIA (SNX-111) binding site ("Site 1") (Rattus norvegicus, UniProt Q02294)
Conditions: read-out: IC50 at the SNX-111 binding site

[ala^12-SNX-111 [SNX-273]
IC50: 8 pM
